Data source: PubChem BioAssay AID504761 (Drosophila RNAi Screening Center, 2011)
Assay: 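Fly genes whose silencing reduces dengue virus type 2 infection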 (primary screen). Cells: D.Mel-2 cells from Drosophila. Reagent: long dsRNA against Drosophila genes. Challenge: infection with dengue virus type 2; dose and infection time not stated. Detection: 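Per well on two replicate plates, imaging gave the percent of cells positive for viral envelope protein, ranked by infection, and a nuclear count of cells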. Reading the numbers: infection score: higher = more virus-infected cells; cell count: higher = more cells in the well. Rule for the call: 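Low infection ranks in the two replicates (chance level up to 0.065) followed by a retest with a 1.5-fold or larger significant decrease, p below 0.05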. Meaning of the calls: active = confirmed: knock-down lowers infection; inactive = not picked or not confirmed.
In all, the deposit lists about 22,000 reagents; shown is a random part of those with a known target gene and a result. In the full data, 116 (0.52%) are marked active. 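Calls depend on retest data that are not deposited; infection was ranked per plate without normalising between plates; the unit of the infection score is not given.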 Raw values vary from plate to plate and are shown uncorrected. Not stated in the record: the amount of reagent, the time to read-out.

no.	target	DRSC id	infection score, replicate 1	infection score, replicate 2	cell count, replicate 1	cell count, replicate 2	Outcome
1	CG31627	DRSC22143	2.6	1.21	6808	6998	inactive
2	Obp8a (Odorant-binding protein 8a)	DRSC17868	2.8	3.13	6330	6523	inactive
3	Obp8a (Odorant-binding protein 8a)	DRSC29698	24.5	8.9	5992	5756	inactive
4	Mgat1	DRSC07463	1.37	1.94	6425	5782	inactive
5	maca	DRSC15738	4.68	5.26	5663	5991	inactive
6	Anp (Andropin)	DRSC14112	8.02	14.4	6667	4842	inactive
7	side-VII (sidestep VII)	DRSC14578	24.6	18.5	6087	6500	inactive
8	CG12691	DRSC17880	1.42	7.12	989	7387	inactive
9	CG32369	DRSC10042	3.74	7.97	5349	5645	inactive
10	CG32369	DRSC10834	8.22	3.47	6542	6311	inactive
11	CG32369	DRSC23995	4.25	1.57	6097	5782	inactive
12	HemK1 (HemK methyltransferase 1)	DRSC03253	3.41	3.03	6535	6558	inactive
13	qkr58E-2 (quaking related 58E-2)	DRSC04710			370	330	inactive
14	qkr58E-2 (quaking related 58E-2)	DRSC25296	14.9	6.26	5130	6344	inactive
15	ras (raspberry)	DRSC18825	5.57	3.43	6540	6495	inactive
16	ras (raspberry)	DRSC27137	2.55	7.23	6235	5716	inactive
17	saturn	DRSC09303	1.31	4.87	5892	6217	inactive
18	saturn	DRSC28436	24.1	8.06	5810	3188	inactive
19	PGAP3 (Post-GPI attachment to proteins 3)	DRSC04989	11.5	32.5	5754	6002	inactive
20	CG2961	DRSC18246	15.6	20.4	6535	3381	inactive
21	CG2961	DRSC28539	19.2	3.9	6302	1025	inactive
22	CG34199	DRSC05867	4.02	8.16	6288	6384	inactive
23	CG34199	DRSC28143	10.3	28.2	6618	4657	inactive
24	CG5500	DRSC15820	1.46	1.32	6316	6661	inactive
25	CG5500	DRSC29450	19.4	18.4	5612	5593	inactive
26	sage (salivary gland-expressed bHLH)	DRSC14580	11.8	7.32	6580	6366	inactive
27	sage (salivary gland-expressed bHLH)	DRSC28200	9.18	24.6	5989	5801	inactive
28	beat-Ic (beaten path Ic)	DRSC01524	0.92	0.55	6176	5807	inactive
29	beat-Ic (beaten path Ic)	DRSC03491	6.16	0.86	5767	6957	inactive
30	beat-Ic (beaten path Ic)	DRSC23508	5.53	4.53	6547	6541	inactive
31	Polr2H (RNA polymerase II, I and III subunit H)	DRSC11642	17.5	43.8	3718	3443	inactive
32	mub (mushroom-body expressed)	DRSC11896	25.3	11	5904	6982	inactive
33	mub (mushroom-body expressed)	DRSC29738	15.6	11.6	6562	5967	inactive
34	CG1785	DRSC18139	3.73	0.79	6093	6608	inactive
35	CG1785	DRSC30032	2.84	4.76	6384	6451	inactive
36	CG5376	DRSC15782		9.24	371	5519	inactive
37	CG5376	DRSC29433	25.6	1.23	4849	891	inactive
38	exp (expansion)	DRSC06313	16.1	16.1	4862	6179	inactive
39	exp (expansion)	DRSC25004	3.15	4.92	6675	6205	inactive

Copied from above for reference:
no.	target	DRSC id	infection score, replicate 1	infection score, replicate 2	cell count, replicate 1	cell count, replicate 2	Outcome
26	sage (salivary gland-expressed bHLH)	DRSC14580	11.8	7.32	6580	6366	inactive
27	sage (salivary gland-expressed bHLH)	DRSC28200	9.18	24.6	5989	5801	inactive
28	beat-Ic (beaten path Ic)	DRSC01524	0.92	0.55	6176	5807	inactive
29	beat-Ic (beaten path Ic)	DRSC03491	6.16	0.86	5767	6957	inactive
30	beat-Ic (beaten path Ic)	DRSC23508	5.53	4.53	6547	6541	inactive
